Values joined by “and” are separate entries in the source; they are usually repeats but may differ in a detail not shown here. Equal entries are not always repeated.

Sequences and labels used below:
B1: IMPI-054 (antibody, V domains shown)
VH: EVQLVESGGGLIQPGGSLRLSCAASGLTVSSNYMSWVRQAPGKGLEWVSIIYSGGSTYYADSVKGRFTISRDNSKNTLYLQMNSLRAEDTAVYYCARLGGYYYYGMDVWGQGTTVTVSS
VL: DIQMTQSPSSLSASVGERVTITCQASQDIRNYLNWYQKKPGKAPKLLIYDSSNLETGVPSRFSGSGSGTDFTFTISSLQPEDIATYYCQQYDNLPITFGQGTRLEIK
B2: IMPI-042 (antibody, V domains shown)
VH: EVQLVESGGGLIQPGGSLRLSCAASGLTVSSNYMSWVRQAPGKGLEWVSIIYSGGSTYYADSVKGRFTISRDNSKNTLYLQMNSLRAEDTAVYYCARLGGYYYYGMDVWGQGTTVTVSS
VL: DIQMTQSPSSLSASVGERVTITCQASQDIRNYLNWYQKKPGKAPKLLIYDSSNLETGVPSRFSGGGSGTDFTFTISSLQPEDIATYYCQQYDNLPITFGQGTRLEIK
B3: IMPI-027 (antibody, V domains shown)
VH: QVQLQESGPGLVKPSQTLSLTCTVSGGSISSYGYYWNWIRQHPGKGLEWIGYIYYSGSTYYNPSLKSRVTISVDTSKNQLSLRLNSVSAADTAVYYCARDFGGNSNYFDYWGQGTLVTVSS
VL: AIQLTQSPSSLSASVGDRVTITCRTSQGISSALAWYQQKPGKAPKLLIYDASSLESGVPSRFSGSGSGTDFTLTISSLQPEDFATYYCQQFNSYPLTFGGGTKVEIK
B4: IMPI-024 (antibody, V domains shown)
VH: EVQLVQSGAEVKKPGESLKISCKGSGYSFTSYWIGWVRQMPGKGLEWMGIIYPGDSDTRYSPSFQGQVTISADKSISTAYLQWSSLKASDTAMYYCVRSYNWNYFDYWGQGTLVTVSS
VL: AIQLTQSPSSLSASVGDRVTITCRASQGISSGLAWYQQKAGKAPKLLIYDVSSLESGVPSRFSGSGSGTDFTLTISSLQPEDFATYYCQQFLSYPWTFGQGTKVEIK
B5: IMPI-055 (antibody, V domains shown)
VH: QVQLVQSGAEVKKPGASVKVSCKASGYTFTSYDINWVRQATGQGLEWMGWMNPNSGNTGYAQKFQGRVTMTRDTSINTAYMELSSLRSEDTAVYFCARGGRYCSDVTCYSGEPFDYWGQGTLVTVSS
VL: EIMLTQSPDFQSVTPKEKVTITCRASQSIGSSLHWYQQKPDQSPKLLIKFASQSISGVPSRFSGSGSGTDFTLTINSLEAEDAAAYYCHQSSSLPHTFGPGTKVEIK
B6: IMPI-059 (antibody, V domains shown)
VH: EVQLVESGGGLIQPGGSLRLSCAASGFTVSSIYMSWVRQAPGKGLEWVSIIYSRGSTDYADSVKGRFTISRDISKNTLYLQMNSLRAEDTAVYYCARDGTMVRGVHAFDIWGQGTMVTVSS
VL: DIQMTQSPPSLSASIGDRVTITCQASQDISNYLNWYQQKPGKAPKLLIYDASNLETGVPSRFSGSGSGTDFTLTISNLQPEDIVTYYCQQYDNLPSSFGQGTKLEIK
B7: IMPI-032 (antibody, V domains shown)
VH: QVQLQESGPGLVKPSGTLSLTCAVSGGSISSNKWWSWVRQPPGKGLEWIGEIDHSGSTMYNPSLKSRVTISVDKSKNQFSLKLNSVTAADTAVYYCTGEGYNWNYWGQGTRVTVSS
VL: DVVMTQSPLSLPVTLGQTASISCRSSQSLLYTDGNTYLSWFQQRPGQSPRRLIYKVSKWESGVPDRFSGSGSGTDFTLKISRVEAEDVGIYYCMQGTHWPLTFGGGTKVEIK
B8: IMPI-017 (antibody, V domains shown)
VH: EVQLVESGGGLIQPGGSLRLSCAAAGLTVSSNYMNWVRQVPGKGLEWVSVIYSGGSTYYADSVKGRFTISRDNSKNTLYLQMNSLRAEDTAVYYCARDLGTLGMDVWGQGTTVTVSS
VL: DIQLTQSPSFLSASVGDRVTITCWASQGISTYLAWYQQKPGKAPKLLIYAASTLQSGVPSRFSGSGSGTEFTLTISSLQPEDFATYYCQQLNSYLPTFGQGTKVEIK
B9: IMPI-047 (antibody, V domains shown)
VH: EVQLVESGGGLIQPGGSLRLSCAASGFTVSSNYMNWVRQAPGKGLEWVSVIYSGGSTYYADSVKGRFTISRDNSKNTLYLQMNSLRTEDTAVYYCARDLVAYGMDVWGQGTTVTVSS
VL: DIQLTQSPSFLSASVGDRVTITCWASQGISSYLAWYQQKPGKAPKVLIYAASTLQSGVPSRFSGSGSGTEFTLTISSLQPEDFATYYCQLLNSNPLTFGGGTKVEIK
B10: IMPI-029 (antibody, V domains shown)
VH: EVQLVESGGGLIQPGGSLRLSCAASGVTVSSNYMNWVRQAPGKGLEWVSVIYSGGSTYYADSVKGRFTISRDNSKNTLFLQMNSLRAEDSAVYYCARDLGPYGVDVWGQGTTVTVSS
VL: DIQLTQSPSFLSASVGDRVTITCWASQGISSYLAWYQQKPGKAPKLLIYAASTLQSGVPSRFSGSGSGTEFTLTISSLQPEDFATYYCQELNSYPLTFGQGTRLEIK
B11: IMPI-005 (antibody, V domains shown)
VH: EVQLVESGGGLIQPGGSLRLSCAASGFTVSSNYMNWVRQAPGKGLEWVSVIYSGGSTYYADSVKGRFTISRDNSKNTLFLQMNSLRAEDSAVYYCARDLGPYGVDVWGQGTTVTVSS
VL: DIQLTQSPSFLSASVGDRVTITCWASQGISSYLAWYQQKPGKAPKLLIYAASTLQSGVPSRFSGSGSGTEFTLTISSLQPEDFATYYCQELNSYPLTFGQGTRLEIK
B12: IMPI-021 (antibody, V domains shown)
VH: EVQLVESGGGLIQPGGSLRLSCAASGVTVSSNYMSWVRQAPGKGLEWVSVIYSGGSTFYADSVKGRFTISRDNSKNTLYLQMNSLRAEDTAVYYCARDLSYYGMDVWGQGTTVTVSS
VL: DIQLTQSPSFLSASVGDRVTITCWASQGISSYLAWYQQKPGKAPKLLIYAASTLQSGVPSKFSGSGSGTEFTLTISSLQPEDFATYYCQQLNSYPCSFGQGTKLEIK
B13: IMPI-060 (antibody, V domains shown)
VH: EVQLVESGGGLIQPGGSLRLSCAASGVTVSSNYMSWVRQAPGKGLEWVSVIYSGGSTFYADSVKGRFTISRDNSKNTLYLQMNSLRAEDTAVYYCARDLSYYGMDVWGQGTTVTVSS
VL: DIQLTQSPSFLSASVGDRVTITCWASQGISSYLAWYQQKPGKAPKLLIYAASTLQSGVPSKFSGSGSGTEFTLTISSLQPEDFATYYCQQLNSYPSSFGQGTKLEIK

This test has as its target SARS-CoV-2 spike trimer protein (wild type), in the envelope of lentiviral pseudovirus particles (SARS-CoV-2, UniProt P0DTC2 14-1273). The experiment in a line: cell-based or functional assay.
For B1, the “Fold change relative to SAD S35 antibody” value was found to be 47.7 fold; the “pseudovirus neutralisation IC50” value is 94.5 pM and 0.0142 ug/ml.
On to B2, for which the “Fold change relative to SAD S35 antibody” value came out at 2.77 fold; the “pseudovirus neutralisation IC50” value is 1440 pM and 0.216 ug/ml.
Take B3: the “Fold change relative to SAD S35 antibody” value came out at 0.13 fold; the “pseudovirus neutralisation IC50” value is 31600 pM and 4.75 ug/ml.
Turning to B4, the “Fold change relative to SAD S35 antibody” value is 0.58 fold; the “pseudovirus neutralisation IC50” value was 6850 pM and 1.03 ug/ml.
In the case of B5, the “Fold change relative to SAD S35 antibody” value was determined as 125 fold; the “pseudovirus neutralisation IC50” value is 36.2 pM and 0.0054 ug/ml.
With B6, the “Fold change relative to SAD S35 antibody” value came to 1410 fold; the “pseudovirus neutralisation IC50” value is 0.0005 ug/ml and 3.2 pM.
With B7, the “Fold change relative to SAD S35 antibody” value is 0.27 fold; the “pseudovirus neutralisation IC50” value is 14900 pM and 2.23 ug/ml.
Take B8: the “Fold change relative to SAD S35 antibody” value was found to be 502 fold; the “pseudovirus neutralisation IC50” value is 9 pM and 0.0013 ug/ml.
As for B9, the “Fold change relative to SAD S35 antibody” value turned out to be 51.7 fold; the “pseudovirus neutralisation IC50” value is 87.2 pM and 0.0131 ug/ml.
In the case of B10, the “Fold change relative to SAD S35 antibody” value worked out at 104 fold; the “pseudovirus neutralisation IC50” value was 43.3 pM and 0.0065 ug/ml.
On to B11, for which the “pseudovirus neutralisation IC50” value was 530 pM and 0.0796 ug/ml.
For the molecule B12, the “Fold change relative to SAD S35 antibody” value was 24.3 fold; the “pseudovirus neutralisation IC50” value is 164 pM and 0.0246 ug/ml.
For B13, the “Fold change relative to SAD S35 antibody” value worked out at 0.73 fold; the “pseudovirus neutralisation IC50” value is 6170 pM and 0.925 ug/ml.

For the origin of these results see patent US20250026813A1, “Antibodies against sars-cov-2 and uses thereof” (published 2025).
